According to PMC4383067, “Interaction of prion protein with acetylcholinesterase: potential pathobiological implications in prion diseases” (2015):

Biological target: the truncated fibrils

With “Full-length human acetylcholinesterase (dimeric, recombinant) (from UniProt P22303 32-614)” the fraction of protein complexes with Hup8TH (AChE:Hup8TH 1:20) was 40% and 20%.

Values joined by “and” are separate entries in the source; they are usually repeats but may differ in a detail not shown here. Identical values can stand only once.
